Compound potency records, mixed from different reports. Data source: NIAID ChemDB in PubChem.

All rows: tests in culture; agent: Mycobacterium tuberculosis

Inhibition is in % at the dose shown (toxicity tests: loss of growth or viability). ECn is the concentration giving n% inhibition of infection, replication or growth. MIC bound comes from a single tested concentration. An empty or dashed field is not shown. Neighbouring rows are from separate reports.

structure	cells	read by	strain or isolate	dose	read-out	value
Cc1c(CN2CCN(C)CC2)cc(-c2ccccc2F)n1-c1ccccc1F	-	-	103471	-	MIC	8 µg/mL
CCCNc1nc(-c2ccc(C)cc2)c(C#N)c(=O)[nH]1	-	-	H37Ra	-	MIC	>50 µg/mL
CC1CCC(=NNC(=O)Cc2csc3nc(-c4ccc(Cl)cc4)cn23)CC1	-	-	H37Rv	-	EC50	>6.25 µg/mL
N/C(=N/N=C/c1ccccc1Br)c1ccccn1	-	-	1062 (THC-resistant)	-	MIC	32 µg/mL
C[C@@H]1NCc2cc(-c3ccc4c(=O)c(C(=O)O)cn(C5CC5)c4c3OC(F)F)ccc21	-	-	M-4	-	MIC	0.125 µg/mL
CCCCCCCCCCCCCCCCCC1=NC(CO)(CO)CO1	-	BACTEC	H37Rv	-	MIC bound	>12.5 µg/mL
O=C(NN=Cc1ccc([N+](=O)[O-])cc1)c1ccncc1	-	resazurin	ATTC 27294	-	MIC	1.2 µg/mL
CCCCCCC(=O)OC1(C)c2ccccc2C2c3cc(Br)ccc3-n3nnnc3C21	-	BACTEC / radiometric	H37Rv	6.25 µg/mL	inhibition	39%
Cc1ccc(N=Cc2ccc([N+](=O)[O-])s2)cc1[N+](=O)[O-]	-	visual reading	H37Rv	-	MIC	8 µg/mL
C=CCSc1ccc(C(=S)NC)cc1	-	-	H37Rv	-	MIC	>268 µM
Cc1ccc(-c2nc(N3CCOCC3)[nH]c(=O)c2C#N)cc1	-	-	H37Ra	-	MIC	>50 µg/mL
COc1ccc2[nH]c(C(O)(Cc3cccnc3)Cc3cccnc3)cc2c1	-	resazurin	H37Rv	-	MIC bound	>6.25 µg/mL
N/C(=N/N=C/c1ccccc1Cl)c1ccccn1	-	-	H37Rv	-	MIC	8 µg/mL
CC1CCC/C(=N\NC(=O)Cc2csc3nc(-c4ccc(Cl)cc4)cn23)C1	-	-	H37Rv	-	EC50	<6.25 µg/mL
Cc1c2c(c(C)c3c4c(oc13)CCCC4)C=NCC2	-	resazurin	H37Rv	-	MIC	0.78 µg/mL
CCCCCCCSc1ccc(C(=S)NCC)cc1	-	-	H37Rv	-	MIC	>274 µM
Cc1[nH]n(C(N)=S)c(=O)c1N=Nc1c(Cl)cccc1Cl	-	BACTEC	H37Rv	-	MIC	≥12.8 µg/mL
Cc1c(CN2CCN(C)CC2)cc(-c2ccccc2Cl)n1-c1cccc2ccccc12	-	-	103471	-	MIC	4 µg/mL
CCN(CC)CCNc1ccc(C)c2sc3c(O)cccc3c(=O)c12	-	BACTEC	H37Rv	-	MIC	12.5 µg/mL
CC(C)C(C(=O)Nc1ccc(C2=CC(/C=C/c3ccccc3)C(C#N)=C(N)O2)cc1)c1ccc(Cl)cc1	-	BACTEC	H37Rv	6.25 µg/mL	inhibition	2%
COc1ccc(/C=C2/SC(=S)N(N)C2=O)cc1	-	visual reading	H37Rv	-	MIC	16 µg/mL
CCCCn1c(C)c2c(=O)[nH]n(C)c(=O)c2c1C	-	-	H37Rv	-	EC50	>12.5 µg/mL
CC1CCC/C(=N\NC(=O)Cc2csc3nc(-c4ccccc4)cn23)C1	-	-	H37Rv	-	EC50	>6.25 µg/mL
CN(C)c1ccc(-c2nc(NCCO)[nH]c(=O)c2C#N)cc1	-	-	H37Ra	-	MIC	>50 µg/mL
CCCC(C)Sc1ccc(C(=S)NCC)cc1	-	-	H37Rv	-	MIC	>300 µM
CCc1cc(Cc2cc(CC)c(NC(=O)C3=CC(=O)CC(c4ccc(OC)cc4)O3)c(CC)c2Cl)c(Cl)c(CC)c1NC(=O)C1=CC(=O)CC(c2ccc(OC)cc2)O1	-	BACTEC	H37Rv	-	MIC bound	>12.5 µg/mL
O=[N+]([O-])/C=C/c1cn(Cc2ccccc2)c2ccccc12	-	resazurin	H37Rv (ATCC 27294)	6.25 µg/mL	inhibition	46%
O=C(NC1CONC1=O)c1ccccc1C(F)(F)F	-	-	13PI	-	MIC	25 µg/mL
N/C(=N/N=C/c1ccc(Br)cc1)c1ccccn1	-	-	1814 (THC-resistant)	-	MIC	32 µg/mL
CCC1CCC(=NNC(=O)Cc2csc3nc(-c4ccccc4)cn23)CC1	-	-	H37Rv	-	MIC	>6.25 µg/mL
NC(=S)NNC(=O)/C(=C/c1ccc(/C=C(\NC(=O)c2ccccc2)C(=O)NNC(N)=S)cc1)NC(=O)c1ccccc1	-	BACTEC	H37Rv	-	MIC bound	≤12.5 µg/mL
CCNC(=S)c1ccc(SC)cc1	-	-	H37Rv	-	MIC	>378 µM
Cc1[nH]c2ccccc2c1/C=N/N(C)C	-	resazurin	H37Rv (ATCC 27294)	6.25 µg/mL	inhibition	0%
COc1cc(C2C=C(c3ccc(NC(=O)C(c4ccc(Cl)cc4)C(C)C)cc3)OC(N)=C2C#N)cc(OC)c1OC	-	BACTEC	H37Rv	6.25 µg/mL	inhibition	0%
Cn1cc(/C=N/N=C/c2cn(C)c3ccccc23)c2ccccc21	-	resazurin	H37Rv (ATCC 27294)	6.25 µg/mL	inhibition	2%
Cc1ccc(/C=N/N=C(/N)c2ccccn2)c(C)c1	-	-	1062 (THC-resistant)	-	MIC	32 µg/mL
N#Cc1c(-c2ccc(F)cc2)nc(N2CCc3ccccc3C2)[nH]c1=O	-	-	H37Ra	-	MIC	>50 µg/mL
Cc1ccnc(NC(=O)c2cccnc2Cl)c1	-	-	H37Rv	-	MIC	>20 µg/mL
C[C@H]1NCc2cc(-c3ccc4c(=O)c(C(=O)O)cn(C5CC5)c4c3OC(F)F)ccc21	-	-	M-4	-	MIC	0.0313 µg/mL
Cc1cc[n+]2c(c1)[nH]c(=O)c1cccnc12	-	-	H37Rv	-	MIC	>20 µg/mL
N/C(=N/N=C/c1cccc(Br)c1)c1ccccn1	-	-	1454 (THC-resistant)	-	MIC	64 µg/mL
COc1ccc2cc1Oc1ccc(cc1)CC1c3c(cc(OC)c4c3Oc3cc5c(cc3O4)CCNC5C2)CCN1C	-	BACTEC	H37Rv	-	MIC bound	≤12.5 µg/mL
O=C(NNc1ccc([N+](=O)[O-])cc1)c1cccnc1Cl	-	-	H37Rv	-	MIC	>20 µg/mL
CCCCc1nnc2c3c(c4cc(Br)ccc4n12)-c1ccccc1C3=O	-	BACTEC / radiometric	H37Rv	6.25 µg/mL	inhibition	69%
O=C(Nc1ccc(Br)cc1)c1cccnc1Cl	-	-	H37Rv	-	MIC	>20 µg/mL
Cc1ccc(NS(=O)(=O)c2ccc(N)cc2)cc1Br	-	BACTEC	H37Rv	-	MIC bound	>12.5 µg/mL
CCCCn1c(C)c2c(OCCO)nn(C)c(=O)c2c1C	-	-	H37Rv	-	EC50	>12.5 µg/mL
C/C(=C\c1cn(Cc2ccccc2)c2ccccc12)[N+](=O)[O-]	-	resazurin	H37Rv (ATCC 27294)	6.25 µg/mL	inhibition	30%
CN1CCN(c2cc3nc(-c4ccc(Cl)cc4)[nH]c3cc2F)CC1	-	resazurin	H37Rv	-	MIC bound	>6.25 µg/mL
O=C1NOCC1NC(=O)C(F)(F)F	-	-	H37Rv	-	MIC	50 µg/mL
CCCc1nnc2c3c(c4cc(Br)ccc4n12)-c1ccccc1C3=O	-	BACTEC / radiometric	H37Rv	6.25 µg/mL	inhibition	72%
OC(C1CCCCN1)C1CC(c2ccccc2)Nc2c(Cl)cc(Cl)cc21	-	resazurin	H37Rv	-	MIC bound	<6.25 µg/mL
CN(/N=C/c1csc2ccccc12)c1ccccc1	-	resazurin	H37Rv (ATCC 27294)	6.25 µg/mL	inhibition	34%
O=[N+]([O-])c1ccc(N=Nc2c(Cl)c(O)c3ccccc3c2O)nc1	-	BACTEC	H37Rv	12.5 µg/mL	inhibition	83%
COc1ccc(-c2nc(NCCO)[nH]c(=O)c2C#N)cc1	-	-	H37Ra	-	MIC	>50 µg/mL
Cc1ccc(/C=N/N=C(/N)c2ccccn2)cc1	-	-	1454 (THC-resistant)	-	MIC	64 µg/mL
CC1CCC2(CC1)SC(C)C(=O)N2NC(=O)Cc1csc2nc(-c3ccccc3)cn12	VERO	-	H37Rv	-	EC50	<6.25 µg/mL
O=C(N/N=C/c1cc(Cl)ccc1[N+](=O)[O-])c1ccncc1	-	resazurin	ATTC 27294	-	MIC	5 µg/mL
CN(C)c1ccc(/C=c2\s/c(=C/C(=O)c3ccccc3)[nH]c2=O)cc1	-	visual reading	H37Rv	-	MIC	8 µg/mL
CCSc1ccc(/C=C/C(N)=S)cc1	-	-	H37Rv	-	MIC	64 µM
Cc1c(CN2CCSCC2)cc(-c2ccccc2F)n1-c1cccc2ccccc12	-	-	103471	-	MIC	4 µg/mL
CCCCCCCC/C=C/CCCCCC1CCCC(C)N1	-	BACTEC	H37Rv	-	MIC	6.25 µg/mL
Cc1c2c(OCC(O)CN3CCN(c4ccccc4)CC3)nn(C)c(=O)c2c(C)n1-c1ccccc1	-	-	H37Rv	-	EC50	>12.5 µg/mL
O=C(Cc1csc2nc(-c3ccc(Cl)cc3)cn12)NN=C1CCCCC1	-	-	H37Rv	-	EC50	>6.25 µg/mL
CN(C)c1cc2nc3ccccc3nc2cc1O	-	BACTEC	H37Rv	-	MIC	0.8 µg/mL
COc1ccc(-n2c(O)c(/C=C3\C=CC=N3)c(=O)[nH]c2=O)cc1	-	visual reading	H37Rv	-	MIC	16 µg/mL
N#Cc1c(-c2cccnc2)nc(N2CCOCC2)[nH]c1=O	-	-	H37Ra	-	MIC	>50 µg/mL
CC(C)Sc1ccc(/C=C/C(N)=S)cc1	-	-	H37Rv	-	MIC	170 µM
COC(=O)CCC(=O)CC(=O)C(=O)Nc1ccc(F)cc1	-	resazurin	H37Rv	-	MIC bound	>6.25 µg/mL
CCCCCCCCCCCCCCCCOc1nn(C)c(=O)c2c(C)n(CCCC)c(C)c12	-	-	H37Rv	-	EC50	<12.5 µg/mL
O=C1c2ccccc2-c2c1c1n[nH]c(=S)n1c1ccc(Br)cc21	-	BACTEC / radiometric	H37Rv	6.25 µg/mL	inhibition	55%
Cc1c(CN2CCN(C)CC2)cc(-c2ccccc2Cl)n1-c1ccccc1	-	-	103471	-	MIC	>16 µg/mL
CCCSc1ccc(C(=S)NC)cc1	-	-	H37Rv	-	MIC	>355 µM
COc1cc(C2CC(c3ccc(NC(=O)C(c4ccc(Cl)cc4)C(C)C)cc3)=NN2C(C)=O)ccc1O	-	BACTEC	H37Rv	6.25 µg/mL	inhibition	26%
O=C1c2ccccc2-c2c1c1nnnn1c1ccc(Br)cc21	-	BACTEC / radiometric	H37Rv	6.25 µg/mL	inhibition	46%
CC(=O)N1N=C(c2ccc(NC(=O)C(c3ccc(Cl)cc3)C(C)C)cc2)CC1c1c(Cl)cccc1Cl	-	BACTEC	H37Rv	6.25 µg/mL	inhibition	0%
O=C(NNc1cccc([N+](=O)[O-])c1)c1cccnc1Cl	-	-	H37Rv	-	MIC	>20 µg/mL
CCn1c(=N)sc2nc3ccccc3n2c1=O	-	resazurin	H37Rv	6.25 µg/mL	inhibition	-36%
COc1cccc(/C=N/N=C(\N)c2ccccn2)c1OC	-	-	H37Rv	-	MIC	250 µg/mL
COc1ccc2c(ccc3oc([N+](=O)[O-])cc32)c1	-	resazurin	H37Rv	6.25 µg/mL	inhibition	100%
N/C(=N/N=C/c1ccc(Cl)cc1)c1ccccn1	-	-	H37Rv	-	MIC	64 µg/mL
Cc1ccc2[nH]c(=O)c3cccnc3[n+]2c1	-	-	H37Rv	-	MIC	>20 µg/mL
O=C(NC1CONC1=O)c1ccc(F)cc1	-	-	12PI	-	MIC	25 µg/mL
CC(=O)N1N=C(c2ccc(NC(=O)C(c3ccc(Cl)cc3)C(C)C)cc2)CC1c1ccccc1Cl	-	BACTEC	H37Rv	6.25 µg/mL	inhibition	0%
CC(=O)Nc1ccc(/C=N/NC(N)=S)cc1F	-	-	Ciprofloxacin-resistant	-	MIC	≤0.1 µg/mL
O=S1(=O)C(=C(c2ccccc2)c2ccccc2)S(=O)(=O)c2ccccc21	-	BACTEC	H37Rv	6.25 µg/mL	inhibition	8%
Cc1[nH]c2ccccc2c1/C=N/Nc1ccccc1	VERO	resazurin	H37Rv (ATCC 27294)	6.25 µg/mL	inhibition	91%
Cc1ccc(S(=O)(=O)C(=S)N(C)N(C)C)cc1	-	-	H37Rv	-	MIC	4 µg/mL
COc1ccc(-c2nc(N3CCOCC3)[nH]c(=O)c2C#N)cc1	-	-	H37Ra	-	MIC	>50 µg/mL
CN(C)c1ccc(/C=N/NC(=O)CCCC(=O)N/N=C/c2ccc(N(C)C)cc2Cl)c(Cl)c1	-	BACTEC	H37Rv	-	MIC bound	>12.5 µg/mL
C=CCSc1ccc(/C=C/C(N)=S)cc1	-	-	H37Rv	-	MIC	63 µM

Repeating the final 8 entries:

structure,cells,read by,strain or isolate,dose,read-out,value
CC(=O)N1N=C(c2ccc(NC(=O)C(c3ccc(Cl)cc3)C(C)C)cc2)CC1c1ccccc1Cl,-,BACTEC,H37Rv,6.25 µg/mL,inhibition,0%
CC(=O)Nc1ccc(/C=N/NC(N)=S)cc1F,-,-,Ciprofloxacin-resistant,-,MIC,≤0.1 µg/mL
O=S1(=O)C(=C(c2ccccc2)c2ccccc2)S(=O)(=O)c2ccccc21,-,BACTEC,H37Rv,6.25 µg/mL,inhibition,8%
Cc1[nH]c2ccccc2c1/C=N/Nc1ccccc1,VERO,resazurin,H37Rv (ATCC 27294),6.25 µg/mL,inhibition,91%
Cc1ccc(S(=O)(=O)C(=S)N(C)N(C)C)cc1,-,-,H37Rv,-,MIC,4 µg/mL
COc1ccc(-c2nc(N3CCOCC3)[nH]c(=O)c2C#N)cc1,-,-,H37Ra,-,MIC,>50 µg/mL
CN(C)c1ccc(/C=N/NC(=O)CCCC(=O)N/N=C/c2ccc(N(C)C)cc2Cl)c(Cl)c1,-,BACTEC,H37Rv,-,MIC bound,>12.5 µg/mL
C=CCSc1ccc(/C=C/C(N)=S)cc1,-,-,H37Rv,-,MIC,63 µM